Assay results taken from patent publication US20240109955A1 (published 2024).

Assays:
Assay in all cases: cell-based or functional assay
[1] = target: SARS-CoV-2 spike protein, Delta variant (SARS-CoV-2)
[2] = target: SARS-CoV-2 spike protein, Omicron variant BA.4/5 (SARS-CoV-2)
[3] = target: SARS-CoV-2 spike protein, Omicron variant BA.2.75.2 (SARS-CoV-2)
[4] = target: SARS-CoV-2 spike protein, Omicron variant BQ.1 (SARS-CoV-2)
[5] = target: SARS-CoV-2 spike protein, Omicron variant BQ.1.1 (SARS-CoV-2)
[6] = target: SARS-CoV-2 spike protein, Omicron variant XBB (SARS-CoV-2)
[7] = target: SARS-CoV-2 spike protein, Omicron variant (B.1.1.529) (SARS-CoV-2, UniProt P0DTC2 14-1273)
[8] = target: SARS-CoV-2 spike protein, Omicron sublineage BA.1.1 (R346K) (SARS-CoV-2, UniProt P0DTC2 14-1273)

B1: MX1071 (other)
chain 1: EIVLTQSPGTLSLSPGETATLSCRASQSFSSDLAWYQQKPGQAPRLLIYGASSRATGIPDRFSGSGSGTDFTLTISRLEPADFAVYYCQQYGSSPPVTFGGGTKVEIKGGSSGQTVVTQEPSFSVSPGGTVTLTCGLSSGSVSTAYFPSWYQQTPGQAPRTLIYGTNTRSSGVPDRFSGSILGNKAALTITGAQADDESDYYCVLYMGRGIVVFGGGTKLTVLGGGGSGGSGSGGGGSASGSGQVQLVESGGGVVQPGRSLRLSCAASGFTLSSYGMHWVRQAPGKGLEWVAVISYDGSNKYYVDSVKGRFTISRDNSKNTLYLQMNSLRAEDTAVYYCRWAYWELLPDYYYGMDVWGQGTTVTVSSGGSSGEVQLVESGGGLIQPGGSLRLSCAASGVIVSYNYMNWVRQAPGKGLEWVSVIYSGGSTFYADSVRGRFTISRDNSKNTLYLQMNSLRAEDTAVYYCARDLGPAGAFDIWGLGTMVTVSSASGGSGDKTHTCPPCPAPELLGGPSVFLFPPKPKDTLMISRTPEVTCVVVDVSHEDPEVKFNWYVDGVEVHNAKTKPREEQYNSYVVSVLTVLHQDWLNGKEYKCKVSNKALPAPIEKTISKAKGQPREPQVYTLPPCRDELTKNQVSLWCLVKGFYPSDIAVEWESNGQPENNYKTTPPVLDSDGSFFKKLTVDKSRWQQGNVFSCSVLHEALHSHYTQKSLSLSPG
chain 2: EIVLTQSPGTLSLSPGETATLSCRASQSFSSDLAWYQQKPGQAPRLLIYGASSRATGIPDRFSGSGSGTDFTLTISRLEPADFAVYYCQQYGSSPPVTFGGGTKVEIKGGSSGDTVMTQSPLSLPVTPGEPASISCRSSQSLLNSNGYNYLDWYVQKPGQSPQLLIYLGSNRASGVPDRFSGSGSGTDFTLKISRVEAEDVGVYYCMQPLQTPLFTFGPGTKVEIKGGGGSGGSGSGGGGSASGSGQVTLRESGPALVKPTQTLTLTCTFSGFSLSTRGVCVSWIRQPPGKALEWLAFIDWDDDKYYNTSLKTRLTISKDTSKNQVVLTMTNVHPVDTATYYCARISSHHGSSWCTTFDYWGQGALVTVSAGGSSGEVQLVESGGGLIQPGGSLRLSCAASGVIVSYNYMNWVRQAPGKGLEWVSVIYSGGSTFYADSVRGRFTISRDNSKNTLYLQMNSLRAEDTAVYYCARDLGPAGAFDIWGLGTMVTVSSASGGSGDKTHTCPPCPAPELLGGPSVFLFPPKPKDTLMISRTPEVTCVVVDVSHEDPEVKFNWYVDGVEVHNAKTKPREEQYNSYVVSVLTVLHQDWLNGKEYKCKVSNKALPAPIEKTISKAKGQPREPQVCTLPPSRDELTKNQVSLSCAVKGFYPSDIAVEWESNGQPENNYKTTPPVLDSDGSFFLVSKLTVDKSRWQQGNVFSCSVLHEALHSHYTQKSLSLSPG
[1]
  IC50, pseudovirus neutralization: 0.00919 mg/L
  IC80, pseudovirus neutralization: 0.0471 mg/L
[2]
  IC50, pseudovirus neutralization: 0.00577 mg/L
  IC80, pseudovirus neutralization: 0.0154 mg/L
[3]
  IC50, pseudovirus neutralization: 0.0031 mg/L
  IC80, pseudovirus neutralization: 0.00772 mg/L
[4]
  IC50, pseudovirus neutralization: 0.00438 mg/L
  IC80, pseudovirus neutralization: 0.0332 mg/L
[5]
  IC50, pseudovirus neutralization: 0.0166 mg/L
  IC80, pseudovirus neutralization: 0.0527 mg/L
[6]
  IC50, pseudovirus neutralization: 0.00381 mg/L
  IC80, pseudovirus neutralization: 0.0101 mg/L

B2: MX1072 (other)
chain 1: B1 chain 1
chain 2: DTVMTQSPLSLPVTPGEPASISCRSSQSLLNSNGYNYLDWYVQKPGQSPQLLIYLGSNRASGVPDRFSGSGSGTDFTLKISRVEAEDVGVYYCMQPLQTPLFTFGPGTKVEIKGGSSGEIVLTQSPGTLSLSPGETATLSCRASQSFSSDLAWYQQKPGQAPRLLIYGASSRATGIPDRFSGSGSGTDFTLTISRLEPADFAVYYCQQYGSSPPVTFGGGTKVEIKGGGGSGGSGSGGGGSASGSGEVQLVESGGGLIQPGGSLRLSCAASGVIVSYNYMNWVRQAPGKGLEWVSVIYSGGSTFYADSVRGRFTISRDNSKNTLYLQMNSLRAEDTAVYYCARDLGPAGAFDIWGLGTMVTVSSGGSSGQVTLRESGPALVKPTQTLTLTCTFSGFSLSTRGVCVSWIRQPPGKALEWLAFIDWDDDKYYNTSLKTRLTISKDTSKNQVVLTMTNVHPVDTATYYCARISSHHGSSWCTTFDYWGQGALVTVSAASGGSGDKTHTCPPCPAPELLGGPSVFLFPPKPKDTLMISRTPEVTCVVVDVSHEDPEVKFNWYVDGVEVHNAKTKPREEQYNSYVVSVLTVLHQDWLNGKEYKCKVSNKALPAPIEKTISKAKGQPREPQVCTLPPSRDELTKNQVSLSCAVKGFYPSDIAVEWESNGQPENNYKTTPPVLDSDGSFFLVSKLTVDKSRWQQGNVFSCSVLHEALHSHYTQKSLSLSPG
[1]
  IC50, pseudovirus neutralization: 0.0248 mg/L
  IC80, pseudovirus neutralization: 0.107 mg/L
[2]
  IC50, pseudovirus neutralization: 0.00446 mg/L
  IC80, pseudovirus neutralization: 0.0178 mg/L
[3]
  IC50, pseudovirus neutralization: 0.0161 mg/L
  IC80, pseudovirus neutralization: 0.0338 mg/L
[4]
  IC50, pseudovirus neutralization: 0.00632 mg/L
  IC80, pseudovirus neutralization: 0.0167 mg/L
[5]
  IC50, pseudovirus neutralization: 0.0154 mg/L
  IC80, pseudovirus neutralization: 0.0259 mg/L
[6]
  IC50, pseudovirus neutralization: 0.00848 mg/L
  IC80, pseudovirus neutralization: 0.0221 mg/L

B3: MX1078 (other)
chain 1: DTVMTQSPLSLPVTPGEPASISCRSSQSLLNSNGYNYLDWYVQKPGQSPQLLIYLGSNRASGVPDRFSGSGSGTDFTLKISRVEAEDVGVYYCMQPLQTPLFTFGPGTKVEIKGGSSGEIVLTQSPGTLSLSPGETATLSCRASQSFSSDLAWYQQKPGQAPRLLIYGASSRATGIPDRFSGSGSGTDFTLTISRLEPADFAVYYCQQYGSSPPVTFGGGTKVEIKGGGGSGGSGSGGGGSASGSGEVQLVESGGGLIQPGGSLRLSCAASGVIVSYNYMNWVRQAPGKGLEWVSVIYSGGSTFYADSVRGRFTISRDNSKNTLYLQMNSLRAEDTAVYYCARDLGPAGAFDIWGLGTMVTVSSGGSSGQVTLRESGPALVKPTQTLTLTCTFSGFSLSTRGVCVSWIRQPPGKALEWLAFIDWDDDKYYNTSLKTRLTISKDTSKNQVVLTMTNVHPVDTATYYCARISSHHGSSWCTTFDYWGQGALVTVSAASGGSGDKTHTCPPCPAPELLGGPSVFLFPPKPKDTLMISRTPEVTCVVVDVSHEDPEVKFNWYVDGVEVHNAKTKPREEQYNSYVVSVLTVLHQDWLNGKEYKCKVSNKALPAPIEKTISKAKGQPREPQVYTLPPCRDELTKNQVSLWCLVKGFYPSDIAVEWESNGQPENNYKTTPPVLDSDGSFFKKLTVDKSRWQQGNVFSCSVLHEALHSHYTQKSLSLSPG
chain 2: DTVMTQSPLSLPVTPGEPASISCRSSQSLLNSNGYNYLDWYVQKPGQSPQLLIYLGSNRASGVPDRFSGSGSGTDFTLKISRVEAEDVGVYYCMQPLQTPLFTFGPGTKVEIKGGSSGQTVVTQEPSFSVSPGGTVTLTCGLSSGSVSTAYFPSWYQQTPGQAPRTLIYGTNTRSSGVPDRFSGSILGNKAALTITGAQADDESDYYCVLYMGRGIVVFGGGTKLTVLGGGGSGGSGSGGGGSASGSGQVQLVESGGGVVQPGRSLRLSCAASGFTLSSYGMHWVRQAPGKGLEWVAVISYDGSNKYYVDSVKGRFTISRDNSKNTLYLQMNSLRAEDTAVYYCRWAYWELLPDYYYGMDVWGQGTTVTVSSGGSSGQVTLRESGPALVKPTQTLTLTCTFSGFSLSTRGVCVSWIRQPPGKALEWLAFIDWDDDKYYNTSLKTRLTISKDTSKNQVVLTMTNVHPVDTATYYCARISSHHGSSWCTTFDYWGQGALVTVSAASGGSGDKTHTCPPCPAPELLGGPSVFLFPPKPKDTLMISRTPEVTCVVVDVSHEDPEVKFNWYVDGVEVHNAKTKPREEQYNSYVVSVLTVLHQDWLNGKEYKCKVSNKALPAPIEKTISKAKGQPREPQVCTLPPSRDELTKNQVSLSCAVKGFYPSDIAVEWESNGQPENNYKTTPPVLDSDGSFFLVSKLTVDKSRWQQGNVFSCSVLHEALHSHYTQKSLSLSPG
[1]
  IC50, pseudovirus neutralization: 0.0119 mg/L
  IC80, pseudovirus neutralization: 0.0259 mg/L
[2]
  IC50, pseudovirus neutralization: 0.00372 mg/L
  IC80, pseudovirus neutralization: 0.0179 mg/L
[3]
  IC50, pseudovirus neutralization: 0.00591 mg/L
  IC80, pseudovirus neutralization: 0.0222 mg/L
[4]
  IC50, pseudovirus neutralization: 0.0334 mg/L
  IC80, pseudovirus neutralization: 0.21 mg/L
[5]
  IC50, pseudovirus neutralization: 0.0484 mg/L
  IC80, pseudovirus neutralization: 0.0918 mg/L
[6]
  IC50, pseudovirus neutralization: 0.0454 mg/L
  IC80, pseudovirus neutralization: 0.0973 mg/L

B4: MX828 (bispecific antibody)
chain: QTVVTQEPSFSVSPGGTVTLTCGLSSGSVSTAYFPSWYQQTPGQAPRTLIYGTNTRSSGVPDRFSGSILGNKAALTITGAQADDESDYYCVLYMGRGIVVFGGGTKLTVLGGSSGEIVLTQSPGTLSLSPGERATLSCRASQSVSSSYLAWYQQKPGQAPRLLIYSASSRATGIPDRFSGSGSGTDFTLTISRLEPEDFAVYFCQQYVGLTGWTFGQGTKVEIKGGGGSGGSGSGGGGSASGSGQMQLVQSGPEVKKPGTSVKVSCKASGFTFTSSAVQWVRQRQRLEWIGWIVVGSGNTNYAQKFQERVTITRDMSTSTAYMELSSLRSEDTAVYYCAAPNCSNVVCYDGFDIWGQGTMVTVSSGGSSGQVQLVESGGGVVQPGRSLRLSCAASGFTLSSYGMHWVRQAPGKGLEWVAVISYDGSNKYYVDSVKGRFTISRDNSKNTLYLQMNSLRAEDTAVYYCRWAYWELLPDYYYGMDVWGQGTTVTVSSASGGSGDKTHTCPPCPAPELLGGPSVFLFPPKPKDTLMISRTPEVTCVVVDVSHEDPEVKFNWYVDGVEVHNAKTKPREEQYNSYVVSVLTVLHQDWLNGKEYKCKVSNKALPAPIEKTISKAKGQPREPQVYTLPPSRDELTKNQVSLTCLVKGFYPSDIAVEWESNGQPENNYKTTPPVLDSDGSFFKKLTVDKSRWQQGNVFSCSVLHEALHSHYTQKSLSLSPG
[7]
  IC50, pseudovirus neutralization: 4.3 nM
  IC80, pseudovirus neutralization: 19.5 nM
[8]
  IC50, pseudovirus neutralization: 1.75 nM
  IC80, pseudovirus neutralization: 6.23 nM
